# Assay results reported in paper PMC3219716, “Indirect DNA Readout by an H-NS Related Protein: Structure of the DNA Complex of the C-Terminal Domain of Ler”.
# Biological target: CT-Ler (Escherichia coli EHEC O157:H7) (UniProt Q7DB51)
# Assay: fluorescence anisotropy
# Conditions: positive control; Anisotropy: 40 mM HEPES pH 7.5, 60 mM K-glutamate, 0.01% NaN3, 20 C; recombinant protein; residues 70-116; protein details: N-terminal His6 (pHAT2)
sequence,measurement,value
GGCAAAAAACGGCAAAAAACGGCAAAAAAC (double strand) [(GGCAAAAAAC)3],binding result,binds

# Construct, isoform or probe ends are uncertain for at least one entry. At least one verdict was read from the data and is not stated in words by the source.
